Publication PMC6430473
pKd: −log10 of the molar value. For at least one entry, the source does not settle the construct or the ends of the probe.

Legend:
[1] = target: T1, Clp (Xanthomonas campestris pv. campestris 8004) (UniProt Q4UZF6); assay: DNase I footprinting; conditions: recombinant protein, residues 1-230, protein details: 6xHis (pQE-30), label: FAM, probe letters rebuilt from the primers and the genome
T1 sequence: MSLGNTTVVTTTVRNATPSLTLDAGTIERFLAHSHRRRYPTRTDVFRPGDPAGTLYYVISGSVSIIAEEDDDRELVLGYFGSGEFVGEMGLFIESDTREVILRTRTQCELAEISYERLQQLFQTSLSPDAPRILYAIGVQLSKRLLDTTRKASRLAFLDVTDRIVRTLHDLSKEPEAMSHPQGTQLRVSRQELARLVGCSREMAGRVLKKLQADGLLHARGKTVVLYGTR

[2] = target: T1, Clp (Xanthomonas campestris pv. campestris 8004); assay: EMSA; conditions: recombinant protein, residues 1-230, protein details: 6xHis (pQE-30), label: FAM; for binding result: 20-30 nM Clp, two bands, probe letters rebuilt from the primers and the …

| Sequence | binding result [2] | other results |
| --- | --- | --- |
| AGGCGATGACTTCGGGAATCAGGGCGAACGTGGCAACGGCGCCAGCCATCAGTTCGCGCGCAGGCGAGGCGCGCCATTGCGCCAGTTCGGTGCGCAGGAAGGACATGGGGGACACTCCAGGGACAAGAACGACAGTCCTGCGGACAGCGCGCAGGGGGCACTAGTGTGCGGGAAAGCGACCGCTCCCGCAGCCGCGATGTGATCGGTGCGGCAATGGTGTTTTCTGTGGGGACGATCACACCACGCGACGCGCGCACAGACCAAGATGCCCGCCTTACCGCGCTCGGGTGTCGAGCCCGGTTCTCTAGGGAGATCACCATGTCCATATTCAGG (double strand) [Dye-3 footprint fragment] |  | binding result ([1]; 40 uM Clp, protects -80 to -32): binds |
| AGTTCGGTGCGCAGGAAGGACATGGGGGACACTCCAGGGACAAGAACGACAGTCCTGCGGACAGCGCGCAGGGGGCACTAGTGTGCGGGAAAGCGACCGCTCCCGCAGCCGCGATGTGATCGGTGCGGCAATGGTGTTTTCTGTGGGGACGATCACACCACGCGACGCGCGCACAGACCAAGATGCCCGCCTTACCGCGCTCGGGTGTCGAGCCCGGTTCTCTAGGGAGATCACCATGTCCATATTCAGGACCGCAAGCACGCTCGCTTTGGCCACCGCCCTCGCACTGGCCGCCGGGCCGGCCTTCAGCTATTCCATCAACAACAGCAGGCAGATCGTCGACGACAGCGGCAAGGTCGTGCAGCTCAAGGGTGTGAA (double strand) [Dye-2 footprint fragment] |  | binding result ([1]; 20 uM Clp, protects -53 to -32): binds |
| CATGGTGATCTCCCTAGAGAACCGGGCTCGACACCCGAGCGCGGTAAGGCGGGCATCTTGGTCTGTGCGCGCGTCGCGTGGTGTGATCGTCCCCACAGAAAACACCATTGCCGCACCGATCACATCGCGGCTGCGGGA (double strand) [P-91/+47] | binds |  |
| CATGGTGATCTCCCTAGAGAACCGGGCTCGACACCCGAGCGCGGTAAGGCGGGCATCTTGGTCTGTGCGCGCGTCGCGTGGTGTGATCGTCCCCACAGAAAACACCATTGCCGCACCGATCACATCGCGGCTGCGGGAGCGGTCGCTTTCCCGCACACTAGTGCCCCCTGCGCGCTGTCCGCAGGACT (double strand) [P-141/+47] | binds |  |
| CATGGTGATCTCCCTAGAGAACCGGGCTCGACACCCGAGCGCGGTAAGGCGGGCATCTTGGTCTGTGCGCGCGTCGCGTGGTGTGATCGTCCCCACAGAAAACACCATTGCCGCACCGATCACATCGCGGCTGCGGGAGCGGTCGCTTTCCCGCACACTAGTGCCCCCTGCGCGCTGTCCGCAGGACTGTCGTTCTTGTCCCTGGAGTGTCCCCCATGTCCTTCCTGCGCA (double strand) [P-184/+47] | binds |  |
| GCAATGGTGTTTTCTGTGGGGACGATCACACCACGCGACGCGCGCACAGACCAAGATGCCCGCCTTACCGCGCTCGGGTGTCGAGCCCGGTTCTCTAGGGAGATCACCATGTCCATATTCAGGACCGCAAGCACGCTCGCTTTGGCCACCGCCCTCGCACTGGCCGCCGGGCCGGCCTTCAGCT (double strand) [P-64/+120] |  | pKd ([2]; probe letters rebuilt from the primers and the genome): 7.43 |
